# Measured values: paper PMC11796224, “Merck Open Global Health Library in vitro screening against Schistosoma mansoni identified two new substances with antischistosomal activities for further development” (Parasites & Vectors, 2025)
# A number of entries come with more than one value. The other results are left out here. There may be further records. The records of an entry differ, and nothing given here explains why; dose, time, organism, isomer or construct need not be as stated for each record.
# Tested on: adult S. mansoni couples
# Assay: In vitro screening of OGHL compounds and analogues against adult S. mansoni couples (Giessen)
# Assay type: cell-based, Schistosoma mansoni
# Details: 10 µM, scale 0-4 (3 = normal activity); tested form: Na salt
compound,measurement,value
COc1ccc(CNc2nc(-c3ccc(C(=O)O)nc3)nc3sc4c(c23)CCCC4)cc1Cl,Motility score after 24 h,< 2 and 1.9
